{"sequences": {"note": "The chains behind the UniProt entries cited, without tags or fusion partners. Where a name states a change or a piece, a line headed by the entry shows the natural chain unless it says otherwise.", "UniProt P43870": "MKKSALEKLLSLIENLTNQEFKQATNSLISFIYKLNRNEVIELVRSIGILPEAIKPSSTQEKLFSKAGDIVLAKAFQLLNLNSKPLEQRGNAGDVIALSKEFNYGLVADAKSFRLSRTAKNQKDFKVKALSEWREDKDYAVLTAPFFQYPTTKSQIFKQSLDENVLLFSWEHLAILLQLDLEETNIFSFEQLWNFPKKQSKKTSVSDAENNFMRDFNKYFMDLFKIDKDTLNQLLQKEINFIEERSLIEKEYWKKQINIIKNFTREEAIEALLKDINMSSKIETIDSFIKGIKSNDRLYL"}, "source": "patent US20100323906", "molecular_target": "HindIII (UniProt P43870)", "assay": "enzyme reaction in vitro", "settings": "5'-dithiol on upper strand, tethered to 20 nm Au nanoparticle; removes 42 bp from distal end; 3.5 nM enzyme; purified recombinant protein; protein details: New England Biolabs; label: FITC on 5' of lower strand"}
{"sequence": "AAAGGATCCAAGCTTGAATTCCTCGAGAGATCTGTCGACGATATCGGTACCAAA (double strand) [54-bp ruler dsDNA]", "values": [{"measurement": "activity on this sequence", "value": "active"}]}
